Pooled drug test results. Numbers come from NIAID ChemDB, via PubChem.

Common to all: whole-cell or culture tests; agent: Hepatitis C virus; read-out: EC50

ECn is the concentration giving n% inhibition of infection, replication or growth. An empty or dashed field is not shown. Rows are shuffled and stem from different studies. Two numbers with a dash give a range or band.

compound	strain or isolate	cells	value
Nc1nc(N2CCOCC2)c2nc(-c3ccc(OC(F)(F)F)cc3)cnc2n1		Huh7	0.3–1 µM
C/C(=C\c1ccc(NC(=O)C2(NC(=O)c3ccc4c(c3)nc(-c3ccoc3)n4C3CCCCC3)CCCC2)cc1)C(=O)O		Huh7	≤5 µM
COC(=O)N[C@@H](C(=O)N1CCC[C@H]1c1ncc(-c2ccc(-c3ccc(-c4cnc([C@@H]5CCCN5C(=O)[C@H](c5ccccc5)N(C)C)[nH]4)cc3C)cc2)[nH]1)c1ccccc1	1b		0.00001–0.000999 µM
Cc1cc(-c2nnc(N[C@@H]3CCC[C@H](O)C3)o2)nc2c(C(C)(C)C)cc(NCC(F)(F)F)cc12	GT 2a JFH	Huh7	0.003 µM
COc1ccccc1-c1cnc2nc(N)nc(N3CCOCC3)c2n1		Huh7	0.3–1 µM
Cn1c(C(=O)O)cc2cc(NC(=O)C3(NC(=O)c4ccc5c(c4)nc(-c4ccoc4)n5C4CCCCC4)CCCC3)ccc21		Huh7	≤5 µM
COc1ccc(NCc2cc3ccccc3oc2=O)cc1		Ava5	20 µM
Cc1ccc(-c2csc(N(C(N)=O)c3ccc(NCC(C)C)c(C(F)(F)F)c3)n2)cn1			<1 µM
Nc1nc(N2CCOCC2)c2nc(-c3ccc(CN4CCOCC4)cc3)cnc2n1		Huh7	1–10 µM
CCCCCOc1ccc(N(C(N)=O)c2nc(-c3cccnc3)cs2)cc1C(F)(F)F			<1 µM
Cc1ccc(NCc2cc3ccccc3oc2=O)c(C)c1		Ava5	>100 µM
CCCCCCCCOc1ccc(N(C(=O)C(=O)OCC)c2nc(-c3cccnc3)cs2)cc1			<1 µM
O=C(NC1(C(=O)Nc2ccc(-c3ccc(C(=O)O)o3)cc2)CCCC1)c1ccc2c(c1)nc(-c1ccoc1)n2C1CCCCC1		Huh7	≤5 µM
O=c1oc2ccccc2cc1CNc1cccc([N+](=O)[O-])c1		Ava5	>100 µM
O=C([C@@H](c1ccccc1)N1CCCCC1)N1CCC[C@@H]1c1ncc(-c2ccc(-c3ncc(-c4cnc([C@H]5CCCN5C(=O)[C@@H](c5cccnc5)N5CCCCC5)[nH]4)cn3)cc2)[nH]1	1b		0.00001–0.000999 µM
CCCCCOc1ccc(N(C(=O)C(N)=O)c2nc(-c3cccnc3)cs2)cc1C(F)(F)F			<1 µM
COC(=O)N[C@@H](C(=O)N1CCC[C@@H]1c1ncc(-c2ccc(-c3ccc(-c4cnc([C@H]5CCCN5C(=O)[C@H](NC(=O)OC)c5ccccc5)[nH]4)nn3)nn2)[nH]1)c1ccccc1	1b		0.001–0.099 µM
O=c1oc2ccccc2cc1CNc1ccccc1		Ava5	90 µM
O=C(O)/C=C/c1ccc(NC(=O)C2(NC(=O)c3ccc4c(c3)nc(-c3ccoc3)n4C3CCCCC3)CCNCC2)cc1		Huh7	≤5 µM
C[C@H](NC(=O)[C@H](c1ccccc1)N(C)C)c1ncc(-c2ccc(-c3ccc(-c4cnc([C@@H](C)NC(=O)[C@@H](c5ccccc5)N(C)C)[nH]4)cc3)nc2)[nH]1	1b		0.00001–0.000999 µM
Cc1cc(-c2nnc(NC3CC(O)(C(F)F)C3)o2)nc2c(C(C)(C)C)cc(NCC(F)(F)F)cc12	GT 1b WT	Huh7	0.00008 µM
Nc1nc(N2CCOCC2)c2nc(-c3cc4ccccc4s3)cnc2n1			0.3–1 µM
C=C[C@H]1C[C@@]1(NC(=O)c1ccc2c(c1)nc(-c1ccoc1)n2C1CCCCC1)C(=O)Nc1ccc(/C=C/C(=O)O)cc1		Huh7	≤5 µM
Cc1cc(F)ccc1-c1cnc2nc(N)nc(N3CCOCC3)c2n1		Huh7	1–10 µM
COC(=O)N[C@@H](C(=O)N1CCC[C@H]1c1ncc(-c2ccc(-c3ccc(-c4cnc([C@@H]5CCCN5C(=O)C5CCN(C)CC5)[nH]4)cn3)cc2)[nH]1)c1ccccc1	1b		0.001–0.099 µM
Nc1nc(N2CCOCC2)c2nc(-c3cccnc3F)cnc2n1		Huh7	1–10 µM
CCCCCOc1ccc(N(C(=O)C(C)C)c2nc(-c3cccnc3)cs2)cc1C(F)(F)F			<1 µM
C[C@@H](NC(=O)c1ccc2c(c1)nc(-c1ccccc1)n2C1CCCCC1)C(=O)Nc1ccc(/C=C/C(=O)O)cc1		Huh7	5–50 µM
CC(C)(C)C(=O)Nc1ccc(-c2cnc3nc(N)nc(N4CCOCC4)c3n2)cc1		Huh7	1–10 µM

The last 4 rows once more:

{"compound": "Nc1nc(N2CCOCC2)c2nc(-c3cccnc3F)cnc2n1", "cells": "Huh7", "value": "1–10 µM"}
{"compound": "CCCCCOc1ccc(N(C(=O)C(C)C)c2nc(-c3cccnc3)cs2)cc1C(F)(F)F", "value": "<1 µM"}
{"compound": "C[C@@H](NC(=O)c1ccc2c(c1)nc(-c1ccccc1)n2C1CCCCC1)C(=O)Nc1ccc(/C=C/C(=O)O)cc1", "cells": "Huh7", "value": "5–50 µM"}
{"compound": "CC(C)(C)C(=O)Nc1ccc(-c2cnc3nc(N)nc(N4CCOCC4)c3n2)cc1", "cells": "Huh7", "value": "1–10 µM"}